Measured values from several laboratories, pooled; numbers as filed in NIAID ChemDB.

Shared fields: growth or infection tests; agent: Mycobacterium tuberculosis

Percent inhibition refers to the dose given; in toxicity tests it is the harm to the cells. ECn is the concentration giving n% inhibition of infection, replication or growth. An empty or dashed field is not shown. Rows are shuffled and stem from different studies. MIC50, MIC90 and the like: level of inhibition, or share of isolates inhibited. MIC bound comes from a single tested concentration.

compound	read by	cells	strain	measure	tested at	result
NNC(=O)c1ccncc1	absorbance		MC2 6230	MIC99		0.15 µM
Cc1cc(=O)n2[nH]c(Nc3ccc(Cl)cc3)c(C(N)=O)c2n1	resazurin		H37Rv	MIC		50 µg/mL
CC(O)(c1ccncc1)c1cc2ccccc2n1S(=O)(=O)c1ccccc1			H37Rv	MIC bound		>6.25 µg/mL
CCCCc1nc(Cl)c(C2C(C(=O)Nc3ccccc3F)=C(C)NC(C)=C2C(=O)Nc2ccccc2F)[nH]1			H37Rv	MIC		6.25 µg/mL
C[C@H]1COc2c(N3CCN(C)CC3)c(F)cc3c(=O)c(C(=O)O)cn1c23			H37RV (DRUG-SUS)	MIC		0.5 µg/mL
O=C(O)c1ccc(OCc2ccccc2)cc1			H37Rv	MIC		15 µM
O=C(c1ccncc1)N1N=C(c2cccs2)CC1(O)C(Cl)(Cl)Cl			RGH102	MIC		>257 µM
Clc1ccc(-n2nnnc2SSc2nnnn2-c2ccc(Cl)cc2)cc1			H37Rv	MIC		125 µM
Nc1ncnc2c1ncn2[C@@H]1O[C@H](COS(N)(=O)=O)[C@@H](O)[C@H]1O				MIC		50 µM
CCn1cc(C(=O)O)c(=O)c2cc(F)c(N3CCNC(C)C3)c(F)c21			79 strains (drug-susceptible)	MIC50		0.96 µg/mL
Cc1ccc(C2=NN(C(=O)c3ccncc3)C(O)(C(Cl)(Cl)Cl)C2)cc1			RGH101	MIC		>252 µM
CCOC(=O)Cc1csc(/N=C2/NC(=O)/C(=C\c3ccccc3[N+](=O)[O-])S2)n1			H37Rv	MIC		>12.5 µg/mL
O=C1CN(Cc2ccc(Cl)cc2)CC(=O)N2Cc3ccccc3CN12	BACTEC		H37Rv	inhibition	12.5 µg/mL	18%
CCOC(=O)Cc1csc(/N=C2/NC(=O)C(C)S2)n1			H37Rv	MIC		>12.5 µg/mL
CCN(CC)CCC(=O)OC1/C(C)=C/C(C)C(=O)CC(C(C)CC2CCC(O)C(OC)C2)OC(=O)C2CCCCN2C(=O)C(=O)[C@@]2(O)OC(CCC2C)CC(OC)\C(C)=C/C=C/C=C/C(C)CC(C)C(=O)C1OC	BACTEC		H37Rv	MIC		≥12.5 µg/mL
Nc1ccc(-c2cc(-c3cn(-c4ccccc4)nc3-c3ccc(F)cc3)[nH]c(=S)n2)cc1	BACTEC / radiometric		H37Rv	EC90		>228 µM
COc1ccc(-n2nnnc2SSc2nnnn2-c2ccc(OC)cc2)cc1			H37Rv	MIC		500 µM
COc1cc(OC)c2c(=O)c3cc(OC)c(OC)cc3oc2c1				MIC		100 µg/mL
CCCOC(=O)c1ccc(N)cc1O			H37Rv	MIC		10 µg/mL
CCOC(=O)Cc1csc(NC(=O)CCl)n1			H37Rv	inhibition	12.5 µg/mL	86%
Nc1nc(-c2cccc([N+](=O)[O-])c2)cc(-c2cn(-c3ccccc3)nc2-c2ccc(F)cc2)n1	BACTEC / radiometric		H37Rv	EC90		>220 µM
COc1cc(O)c2c(=O)c3cc(OC)c(O)c(O)c3oc2c1				MIC		10 µg/mL
CCc1nc(NC(C(=O)O)C(C)C)c2cc(C)sc2n1	resazurin		Erdman	EC50		2.3 µM
Cc1cc(=O)n2[nH]c(Nc3ccc(F)cc3)c(C(=O)Nc3cccc(Cl)c3)c2n1	resazurin		H37Rv	MIC		12.5 µg/mL
CCN(CC)c1cc2oc3cc(N)cc(=N)c-3nc2cc1C	BACTEC		H37Rv	MIC bound		≤12.5 µg/mL
COc1cc2c(cc1O)-c1cc(O)c(OC)c(OC)c1C=CC2			H37Rv	MIC		25 µg/mL
Cc1c(N)nc(C(CC(N)=O)NCC(N)C(N)=O)nc1C(=O)NC(C(=O)NC(C)C(O)CC(=O)NC(C(=O)NC(OC1OC(C)C(N)C(O)C1O)C(O)c1nc(-c2nc(C(=O)NCCC[S+](C)C)cs2)cs1)C(C)O)C(OC1OC(CO)C(O)C(O)C1OC1OC(CO)C(O)C(OC(N)=O)C1O)c1cnc[nH]1.Cl.Cl.Cl.[Cl-]			RMP-R	MIC		0.2 µg/mL
C/C=C/C/C=C/CCC(=O)[C@H]1O[C@H]1C(N)=O			Isolate 2H339	MIC		3 µg/mL
Cc1ccc(NC(=O)c2c(Nc3ccccc3)[nH]n3c(=O)cc(C)nc23)cc1	resazurin		H37Rv	MIC		50 µg/mL
CO[C@@]12[C@H](COC(N)=O)C3=C(C(=O)C(C)=C(N)C3=O)N1C[C@H]1[C@@H]2N1C(=O)c1ccc(Cl)cc1		VERO	H37Rv	MIC		0.059 µg/mL
Cc1c(F)c(N2CCNC(C)C2)cc2c1c(=O)c(C(=O)O)cn2C1CC1			22 strains	MIC50		0.8 µg/mL
CC(=O)OCCCN1/C(=C\C=C2/CCC(/C=C/c3sc4cc5ccccc5cc4[n+]3CCCOC(C)=O)=C2N(c2ccccc2)c2ccccc2)Sc2cc3ccccc3cc21.[O-][Cl+3]([O-])([O-])[O-]	BACTEC		H37Rv	inhibition	12.5 µg/mL	6%
COc1cc(OC2OC(CO)C(O)C(O)C2O)c2c(=O)c3c(O)ccc(O)c3oc2c1				MIC		200 µg/mL
Nc1ncnc2c1ncn2[C@@H]1O[C@H](CNS(=O)(=O)CC(=O)c2ccccc2O)[C@@H](O)[C@H]1O				MIC		25 µM
COc1cc2c(=O)c3c(O)cc(O)cc3oc2c(OC)c1O				MIC		5 µg/mL
COc1cc(OC)c(NC2=CC(c3ccc(Cl)cc3)OC2=O)cc1Cl	BACTEC		H37Rv	inhibition	12.5 µg/mL	0%
Cc1c(CN2CCOCC2)cc(-c2ccccc2)n1NC(=O)c1ccncc1			27294	MIC		2 µg/mL
O=C(O)c1c(-c2ccccc2)oc(-c2ccccc2)c1C(=O)O	BACTEC		H37Rv	MIC bound		>12.5 µg/mL
COc1cc(O)c2c(=O)c3cccc(O)c3oc2c1				MIC		>200 µg/mL
Oc1ccc(-c2cc(-c3cn(-c4ccccc4)nc3-c3ccc(F)cc3)[nH]c(=S)n2)cc1	BACTEC / radiometric		H37Rv	EC90		>227 µM
COC(=O)c1c(C(=O)c2ccccc2)nn2c(-c3ccccc3)c(-c3ccccc3)c(-c3ccccc3)c(-c3ccccc3)c12	resazurin		H37Rv	MIC bound		<6.25 µg/mL
CCc1nc(NCCCc2ccccc2)c2cc(C)sc2n1	resazurin		Erdman	EC50		0.042 µM
CC(C)COC(=O)c1ccc(NC(=O)CCC(=O)O)cc1O			H37Rv	MIC		>20 µg/mL
O=C(c1ccncc1)N1N=C(c2ccco2)CC1(O)C(F)(F)F			RGH102	MIC		38.46 µM
Cc1cc(O)c2c(c1)C(=O)C[C@H](c1c(C)cc3c(c1O)C(=O)CCC3O)[C@@H]2O			H37Rv ATCC 27294 (drug-susceptible)	MIC		>100 µg/mL
COc1ccc2c(=O)c3c(O)cc(O)cc3oc2c1O				MIC		40 µg/mL
Cc1cc(=O)n2[nH]c(Nc3cccc(C)c3C)c(C(=O)Nc3cccc(Cl)c3)c2n1	resazurin		H37Rv	MIC		50 µg/mL
Cc1ccc(Nc2cc(Cl)nc(N)n2)cc1Cl	BACTEC		H37Rv	inhibition	12.5 µg/mL	98%
Cc1ccc(NC(=O)c2c(Nc3ccc(Cl)cc3)[nH]n3c(=O)cc(C)nc23)cc1	resazurin		H37Rv	MIC		3.12 µg/mL
CC(C)OC(=O)c1ccc(N)cc1O			H37Rv	MIC		20 µg/mL
CCCCc1nc(Cl)c(C2C(C(=O)Nc3ccc(F)cc3)=C(C)NC(C)=C2C(=O)Nc2ccc(F)cc2)[nH]1	resazurin		H37Rv	inhibition	6.25 µg/mL	100%
COC(=O)c1ccc(NC(=O)c2ccccc2C(=O)O)cc1O			H37Rv	MIC		>2 µg/mL
CCCCOc1ccc(C(=O)O)cc1			H37Rv	MIC		7 µM
CCOC(=O)c1ccc(N)cc1O			H37Rv	MIC		>20 µg/mL
Cc1ccc([N+](=O)[O-])cc1NC(=O)COc1ccc([N+](=O)[O-])c(F)c1	broth dilution		H37Rv	MIC90		64 µg/mL
CCOC(=O)/C(C(=N)c1nc(C)c(C(=O)OCC)c(C(N)=O)n1)=C(/C)O	resazurin		H37Rv	inhibition	6.25 µg/mL	-10%
CCCCCc1ccc(-c2cn(CC(=O)N3c4ccccc4Sc4ccc(C(F)(F)F)cc43)nn2)cc1	agar		H37Rv	MIC100		25 µg/mL
COc1ccc(C2=C(c3ccc(OC)cc3)c3c(OC)cc(OC)cc3OC2)cc1	BACTEC		H37Rv	inhibition	12.5 µg/mL	8%
CN(C)c1cc2nc(C3CCCCC3)[nH]c2cc1NC(=O)c1ccc(OC(F)(F)F)c(F)c1F	resazurin		H37Rv	MIC		0.39 µg/mL
COc1ccc(-c2cc(=O)c3c(O)cc(O)cc3o2)cc1Oc1ccc(-c2cc(=O)c3c(O)cc(O)cc3o2)cc1	BACTEC		H37Rv	MIC bound		>12.5 µg/mL
COc1ccc(NC(=O)c2c(Nc3ccccc3)[nH]n3c(=O)cc(C)nc23)cc1	resazurin		H37Rv	MIC		50 µg/mL
Cc1cc(CN2CCN(c3ccc(F)cc3)CC2)c(-c2ccc(Cl)cc2)n1NC(=O)c1cnccn1			27294	MIC		>16 µg/mL
Nc1ncnc2c1ncn2[C@@H]1O[C@H](CNS(=O)(=O)NC(=O)c2ccccc2[O-])[C@@H](O)[C@H]1O				MIC		0.19 µM
CC1CC(O)C2C3(C)C(=O)C34CCCC3(CC23C12CCC1(CCOC1=O)O2)O4	BACTEC		H37Rv	MIC bound		>12.5 µg/mL
COc1ccc(NC(=O)c2c(Nc3ccc(OC)cc3)[nH]n3c(=O)cc(C)nc23)cc1	resazurin		H37Rv	MIC		12.5 µg/mL
CCCCOC(=O)c1ccc(NC(=O)CCC(=O)O)cc1O			H37Rv	MIC		>20 µg/mL
CC(C)Oc1ccc(C(=O)O)cc1			H37Rv	MIC		31 µM
c1ccc(-n2nnnc2SSc2nnnn2-c2ccccc2)cc1			H37Rv	MIC		>1000 µM
CCc1nc2ccc(Cl)cn2c1C(=O)NCc1ccc(N2CCC(c3ccc(OC(F)(F)F)cc3)CC2)cc1	resazurin		Erdman	EC50		0.001 µM
CCCOc1ccc(C(=O)O)cc1			H37Rv	MIC		61 µM
O=C(Oc1c(OC(=O)c2ccccc2)c2ccccc2c2ccccc12)c1ccccc1	resazurin		H37Rv	MIC bound		>6.25 µg/mL
Cc1cc(CN2CCN(C(c3ccccc3)c3ccccc3)CC2)c(-c2ccc(Cl)cc2)n1-c1ccc(F)cc1F			27294	MIC		>16 µg/mL
CCOC(=O)Cc1csc(/N=C2/NC(=O)/C(=C\c3ccc([N+](=O)[O-])o3)S2)n1			H37Rv	EC50		<12.5 µg/mL
CCCCc1nc(Cl)c(C2C(C(=O)Nc3ccc(Cl)cc3)=C(C)NC(C)=C2C(=O)Nc2ccc(Cl)cc2)[nH]1			H37Rv	MIC		1.56 µg/mL
CCS(=O)(=O)CCN1C(=O)CN=C(c2ccccc2F)c2cc(Cl)ccc21	BACTEC		H37Rv	inhibition	12.5 µg/mL	-34%
COC(=O)c1ccc(NC(=O)/C=C\C(=O)O)cc1O			H37Rv	MIC		>20 µg/mL
CCCCn1c(C)nc2c(NN=C(N)N)c3ccccc3c(N=NC(=N)N)c21	BACTEC		H37Rv	MIC		12.5 µg/mL
CCCCNc1nc(CC)nc2sc(C)cc12	resazurin		Erdman	EC50		2.7 µM
CCOC(=O)c1cccc2c(=O)c3c([nH]c12)C(=O)c1c([nH]c2c(C(=O)OCC)cccc2c1=O)C3=O	BACTEC		H37Rv	MIC bound		>12.5 µg/mL
CCOC(=O)Cc1csc(/N=C2/NC(=O)CS2)n1			H37Rv	MIC		>12.5 µg/mL
CO[C@@]12[C@H](COC(N)=O)C3=C(C(=O)C(C)=C(N4CCOCC4)C3=O)N1C[C@@H]1N[C@@H]12	BACTEC			inhibition	0.5 µM	0%
COC(=O)c1ccc(NC(=O)CCC(=O)O)cc1O			H37Rv	MIC		>20 µg/mL

The last 6 rows once more:

compound	read by	cells	strain	measure	tested at	result
CCCCn1c(C)nc2c(NN=C(N)N)c3ccccc3c(N=NC(=N)N)c21	BACTEC		H37Rv	MIC		12.5 µg/mL
CCCCNc1nc(CC)nc2sc(C)cc12	resazurin		Erdman	EC50		2.7 µM
CCOC(=O)c1cccc2c(=O)c3c([nH]c12)C(=O)c1c([nH]c2c(C(=O)OCC)cccc2c1=O)C3=O	BACTEC		H37Rv	MIC bound		>12.5 µg/mL
CCOC(=O)Cc1csc(/N=C2/NC(=O)CS2)n1			H37Rv	MIC		>12.5 µg/mL
CO[C@@]12[C@H](COC(N)=O)C3=C(C(=O)C(C)=C(N4CCOCC4)C3=O)N1C[C@@H]1N[C@@H]12	BACTEC			inhibition	0.5 µM	0%
COC(=O)c1ccc(NC(=O)CCC(=O)O)cc1O			H37Rv	MIC		>20 µg/mL